Pooled drug test results. Numbers come from NIAID ChemDB, via PubChem.

Shared fields: growth or infection tests; organism: Aspergillus fumigatus; measure: MIC

Conditions beyond the fields shown may differ between rows.

SMILES	strain or isolate	method	conditions	value
CCCCCCCCCCCCC(C)(O)C1CC(=O)NC(CO)C(=O)N[C@H](C)C(=O)NC(CC(=O)O)C(=O)NC(CC(N)=O)C(=O)NC(CC(N)=O)C(=O)NC(CO)C(=O)NC([C@@H](C)O)C(=O)O1	TIMM0070			16 µg/mL
O=C(N/N=C/c1cc([N+](=O)[O-])ccc1O)c1ccc(I)cc1	Strain #2			0.4 µg/mL
CC[C@@H]([C@H](C)O)n1ncn(-c2ccc(N3CCN(c4ccc(OC[C@@H]5CO[C@@](Cn6cncn6)(c6ccc(F)cc6F)C5)cc4)CC3)cc2)c1=O		XTT		0.5 µg/mL
CCCCCCCCCCC[C@@H]1CC(=O)NCC(=O)N[C@@H](CCCCN)C(=O)N[C@@H]([C@@H](C)CC)C(=O)N1	TIMM0063			16 µg/mL
COC12OC1(C13OC1(OC)C(=O)c1cc4cc(C)oc(=O)c4c(O)c1C3O)C(O)c1c(cc3cc(C)oc(=O)c3c1O)C2=O	IFO8866			>100 µg/mL
CC(C(O)(Cn1cncn1)c1ccc(F)cc1F)S(C)(=O)=O	H11-20			10 µg/mL
CCCCCCCCCCCCCC(O)CC(O)C(N)CC(=O)CC(C)C(N)C(=O)NC(C=O)CO				25 µg/mL
CCN1CCN(c2nc(Nc3ccc(C#N)c(C(F)(F)F)c3)nc(Oc3cccc4cccnc34)n2)CC1	MTCC 343	agar		50 µg/mL
CCCCCOc1ccc(-c2cc(-c3ccc(C(=O)N[C@H]4C[C@@H](O)[C@@H](O)NC(=O)[C@@H]5[C@@H](O)[C@@H](C)CN5C(=O)[C@H]([C@H](O)CC(N)=O)NC(=O)[C@H]([C@H](O)[C@@H](O)c5ccc(O)c(OS(=O)(=O)O)c5)NC(=O)[C@@H]5C[C@@H](O)CN5C(=O)[C@H]([C@@H](C)O)NC4=O)cc3)no2)cc1				0.0078 µg/mL
CCCCCCCCCCC[C@@H]1CC(=O)NCC(=O)N[C@@H](CCCCN)C(=O)N[C@@H](C(C)C)C(=O)N1	TIMM0063			128 µg/mL
CCC1C=C(c2cccc(Cl)c2)C(=O)O1	231			>125 µM
O=C(Nc1c(F)cccc1F)OCCCN1CCN(c2nc3ccccc3s2)CC1	CF1083			1.1 µg/mL
CCCCCCCCC[C@@H]1CC(=O)NCC(=O)N[C@@H](Cc2cnc[nH]2)C(=O)N[C@@H](C(C)C)C(=O)N1	TIMM0063			>32 µg/mL
CCC(C)CC(C)CCCCCCCCC(=O)N[C@H]1C[C@@H](O)[C@H](NCCN)NC(=O)[C@@H]2[C@@H](O)CCN2C(=O)[C@H]([C@H](O)CCN)NC(=O)[C@H]([C@H](O)[C@@H](O)c2ccc(O)cc2)NC(=O)[C@@H]2C[C@@H](O)CN2C(=O)[C@H]([C@@H](C)O)NC1=O		XTT		0.5 µg/mL
Cc1ccc(C(C)C)cc1	F17			>20 µg/mL
C[C@H]1[C@H](O)[C@@H](C)/C=C/C=C/C=C/C=C/C=C/C=C/C=C/[C@H](O[C@@H]2O[C@H](C)[C@@H](O)[C@H](N)[C@@H]2O)C[C@@H]2O[C@](O)(C[C@@H](O)C[C@@H](O)CC[C@H](O)[C@@H](O)C[C@@H](O)CC(=O)O[C@H]1C)C[C@H](O)[C@H]2C(=O)O	NBRC 33022	broth dilution	48 h	0.5 µg/mL
OB1OCc2ccc3ccccc3c21				32 µg/mL
CN[C@@H]1[C@H](O[C@@H]2OC[C@@H](O)[C@H](O)[C@H]2O)[C@@H](O)[C@H](O[C@H]2c3cc(C)c(C(=O)N[C@H](C)C(=O)O)c(O)c3-c3c(cc4c(c3O)C(=O)c3cc(OC)cc(O)c3C4=O)[C@@H]2O)O[C@@H]1C	IAM2034			1.6 µg/mL
CCC1C=C(c2ccc(Cl)cc2)C(=O)O1	231			125 µM
COC(/C=C/c1cccs1)=C1/C(=O)C=C(C)C1=O	ATCC 90906			>20 µg/mL
C[C@H]1[C@H](O)[C@@H](C)/C=C/C=C/C=C/C=C/C=C/C=C/C=C/[C@H](O[C@@H]2O[C@H](C)[C@@H](O)[C@H](N)[C@@H]2O)C[C@@H]2O[C@](O)(C[C@@H](O)C[C@@H](O)CC[C@H](O)[C@@H](O)C[C@@H](O)CC(=O)O[C@H]1C)C[C@H](O)[C@H]2C(=O)O	IAM2530			0.4 µg/mL
C[C@H]1[C@H](O)[C@@H](C)/C=C/C=C/C=C/C=C/C=C/C=C/C=C/[C@H](O[C@@H]2O[C@H](C)[C@@H](O)[C@H](N)[C@@H]2O)C[C@@H]2O[C@](O)(C[C@@H](O)C[C@@H](O)CC[C@H](O)[C@@H](O)C[C@@H](O)CC(=O)O[C@H]1C)C[C@H](O)[C@H]2C(=O)O	MF5668			0.125 µg/mL
CC(C)N1CCN(c2nc(Nc3ccc(C#N)c(C(F)(F)F)c3)nc(Oc3cccc4cccnc34)n2)CC1	MTCC 343	agar		50 µg/mL
CCCCCCCCCCC[C@@H]1CC(=O)NCC(=O)N[C@@H](CCCCN)C(=O)N[C@@H](CC(C)(C)C)C(=O)N1	TIMM0063			8 µg/mL
C[C@@H]1CCC2(OC1)OC1CC3C4C[C@H](OC5O[C@@H](CO)[C@H](O)[C@@H](O)[C@@H]5O)[C@H]5C[C@@H](OC6O[C@H](CO)[C@@H](O)[C@H](O)[C@H]6O)CC[C@]5(C)C4CC[C@]3(C)C1[C@@H]2C	ATCC 90906			>20 µg/mL
COc1ccc2c(c1OC)CN1CCc3cc4c(cc3C1=C2)OCO4	ATCC 16424			>128 µg/mL
CC1C=C(c2ccccc2Cl)C(=O)O1	231			>125 µM
N#Cc1ccc(Nc2nc(Oc3cccc4cccnc34)nc(N3CCN(c4cccc(Cl)c4Cl)CC3)n2)cc1C(F)(F)F	MTCC 343	agar		6.25 µg/mL
CCCCCCCCC[C@@H]1CC(=O)NCC(=O)N[C@@H](CCCN=C(N)N)C(=O)N[C@@H](C(C)C)C(=O)N1	TIMM0063			64 µg/mL
COc1cccc(C2=CC(C)OC2=O)c1	231			>125 µM
CCC(C)n1ncn(-c2ccc(N3CCN(c4ccc(OC[C@H]5CO[C@](Cn6cncn6)(c6ccc(Cl)cc6Cl)O5)cc4)CC3)cc2)c1=O	H11-20			0.035 µg/mL
CCC1C=C(c2cccnc2)C(=O)O1	231			>125 µM
CCCCCOc1ccc(-c2ccc(-c3ccc(C(=O)N[C@H]4C[C@@H](O)[C@@H](O)NC(=O)[C@@H]5[C@@H](O)[C@@H](C)CN5C(=O)[C@H]([C@H](C)O)NC(=O)[C@H]([C@H](O)[C@@H](O)c5ccc(O)cc5)NC(=O)[C@@H]5C[C@@H](O)CN5C(=O)[C@H]([C@H](C)O)NC4=O)cc3)cc2)cc1	28 isolates			≤0.03 µg/mL
CC1C=C(c2ccc(C(F)(F)F)cc2)C(=O)O1	231			>125 µM
C=C1C(=O)OCC1COC(=O)CCCCC	IFO8866			50 µg/mL
CCCCCCCCCCC[C@@H]1CC(=O)NCC(=O)N[C@@H](CCCCN)C(=O)N[C@@H](CC2CCCCC2)C(=O)N1	TIMM0063			64 µg/mL
CC1C=C(c2cccc(F)c2)C(=O)O1	231			>125 µM

Repeating the first 5 entries:

SMILES	strain or isolate	method	conditions	value
CCCCCCCCCCCCC(C)(O)C1CC(=O)NC(CO)C(=O)N[C@H](C)C(=O)NC(CC(=O)O)C(=O)NC(CC(N)=O)C(=O)NC(CC(N)=O)C(=O)NC(CO)C(=O)NC([C@@H](C)O)C(=O)O1	TIMM0070			16 µg/mL
O=C(N/N=C/c1cc([N+](=O)[O-])ccc1O)c1ccc(I)cc1	Strain #2			0.4 µg/mL
CC[C@@H]([C@H](C)O)n1ncn(-c2ccc(N3CCN(c4ccc(OC[C@@H]5CO[C@@](Cn6cncn6)(c6ccc(F)cc6F)C5)cc4)CC3)cc2)c1=O		XTT		0.5 µg/mL
CCCCCCCCCCC[C@@H]1CC(=O)NCC(=O)N[C@@H](CCCCN)C(=O)N[C@@H]([C@@H](C)CC)C(=O)N1	TIMM0063			16 µg/mL
COC12OC1(C13OC1(OC)C(=O)c1cc4cc(C)oc(=O)c4c(O)c1C3O)C(O)c1c(cc3cc(C)oc(=O)c3c1O)C2=O	IFO8866			>100 µg/mL

An empty or dashed field is not shown.